Compound potency records, mixed from different reports. Data source: NIAID ChemDB in PubChem.

Shared fields: target-level tests; agent: HIV-1; protein: Protease

ICn is the concentration giving n% inhibition.

{"compound": "COc1ccc([C@H]2CC(=O)c3c(O)c(C)c(O)c(C)c3O2)cc1", "method": "HPLC", "measure": "IC50", "value": "64.3 µM"}
{"compound": "CC1CCC2C(C)(C)C(O)CCC2(C)C12Cc1c(cc3c(c1O)CN(CCCCC(=O)O)C3=O)O2", "method": "substrate cleavage / HPLC", "measure": "IC50", "value": "39 µM"}
{"compound": "CC[C@H](C)[C@@H](C=O)NC(=O)[C@H](CO)NC(=O)[C@H](Cc1ccc(O)cc1)NC(=O)[C@H](CCC(=O)O)NC(=O)[C@H](CC(C)C)NC(=O)[C@@H](N)CC(C)C", "method": "HPLC", "measure": "IC50", "value": "0.02 µM"}
{"compound": "O=c1c(OC2O[C@@H](O)[C@H](O)[C@H](O)[C@H]2O)c(-c2ccc(O)cc2)oc2cc(OC3O[C@@H](O)[C@H](O)[C@H](O)[C@H]3O)cc(O)c12", "method": "HPLC", "measure": "IC50", "value": ">300 µM"}
{"compound": "NC(=O)C[C@H](NC(=O)OCc1ccccc1)C(=O)N[C@@H](Cc1ccccc1)[C@H](O)C(=O)N1CCC[C@H]1C(N)=O", "measure": "IC50", "value": ">0.05 µM"}
{"compound": "COc1ccc(S(=O)(=O)N(Cc2ccco2)C[C@@H](O)[C@H](Cc2ccccc2)NC(=O)O[C@H]2CCOC2)cc1", "measure": "Ki", "value": "0.02 µM"}
{"compound": "C/C=C(/CC[C@@H](C)[C@H]1CC[C@H]2[C@@H]3CC=C4C[C@@H](O)CC[C@]4(C)[C@H]3CC[C@]12C)C(C)C", "method": "HPLC", "measure": "IC50", "value": ">100 µM"}
{"compound": "CC(=O)O[C@@H]1OC(Oc2c(-c3ccc(O)cc3)oc3cc(OC4O[C@@H](O)[C@H](O)[C@H](O)[C@H]4O)cc(O)c3c2=O)[C@H](O)[C@@H](OC(C)=O)[C@H]1O", "method": "HPLC", "measure": "IC50", "value": ">300 µM"}
{"compound": "CC1CCC2C(C)(C)C(O)CCC2(C)C12Cc1c(cc3c(c1O)CC(C(CCCCN1Cc4c(cc5c(c4O)CC4(O5)C(C)CCC5C(C)(C)C(O)CCC54C)C1=O)C(=O)O)C3=O)O2", "method": "substrate cleavage / HPLC", "measure": "IC50", "value": "11 µM"}
{"compound": "OC1C(Cc2ccccc2)(Cc2ccccc2)[C@@H]2COC[C@H]2C1(Cc1ccccc1)Cc1ccccc1", "measure": "IC50", "value": "70–100 µM"}
{"compound": "Cc1cccc(C)c1OCC(=O)N[C@@H](Cc1ccccc1)[C@@H](O)C[C@H](Cc1ccccc1)NC(=O)[C@@H](NS(=O)(=O)c1ccc(C(F)(F)F)cn1)C(C)C", "method": "substrate cleavage", "measure": "Ki", "value": "0.0006 µM"}
{"compound": "CC(C)c1nc(CN(C)C(=O)N[C@H](C(=O)NN(Cc2ccccc2)C[C@H](O)[C@H](Cc2ccccc2)NC(=O)OCc2cncs2)C(C)C)cs1", "method": "fluorescence", "measure": "IC50", "value": "<0.0005 µM"}
{"compound": "CC(C)(C)NC(=O)[C@@H]1[C@@H](c2ccccc2)CCN1C(=O)[C@@H](O)[C@H](Cc1ccccc1)NC(=O)[C@H](CC(N)=O)NC(=O)OCc1ccccc1", "measure": "IC50", "value": "<0.05 µM"}
{"compound": "CC(C)C[C@@H](C=O)NC(=O)[C@H](CO)NC(=O)[C@H](Cc1ccc(O)cc1)NC(=O)[C@H](CCC(=O)O)NC(=O)[C@H](CC(C)C)NC(=O)[C@@H](N)CC(C)C", "method": "HPLC", "measure": "IC50", "value": "0.015 µM"}
{"compound": "NS(=O)(=O)c1ccc(NC(=O)c2ccccc2SSc2ccccc2C(=O)Nc2ccc(S(N)(=O)=O)cc2)cc1", "measure": "IC50", "value": "8.4 µM"}
{"compound": "CC(C)C[C@H](NC(=O)[C@@H](N)CC(C)C)C(=O)N[C@@H](CCC(=O)O)C(=O)N[C@H](C=O)Cc1ccc(O)cc1", "method": "HPLC", "measure": "IC50", "value": "5.1 µM"}
{"compound": "CC(C)c1nc(CN(C)C(=O)N[C@H](C(=O)NN(Cc2ccccc2)C[C@H](O)[C@H](Cc2ccccc2)NC(=O)OCc2ccccc2)C(C)C)co1", "method": "fluorescence", "measure": "IC50", "value": "<0.0005 µM"}
{"compound": "CC[C@H](C)[C@H](NC(=O)[C@@H]1CCCN1C(=O)[C@H](O)[C@H](Cc1ccccc1)NC(=O)[C@H](CC(N)=O)NC(=O)CCc1ccccc1)C(=O)N[C@H](C(N)=O)C(C)C", "measure": "IC50", "value": "<5 µM"}
{"compound": "COc1ccc(CN(C[C@H](O)[C@H](Cc2ccccc2)NC(=O)[C@@H](NC(=O)OCc2ccccn2)C(C)C)NC(=O)OC(C)(C)C)cc1", "method": "fluorescence", "measure": "IC50", "value": "~0.0005 µM"}
{"compound": "CC[C@H](C)[C@@H](C=O)NC(=O)[C@H](CO)NC(=O)[C@H](Cc1ccc(O)cc1)NC(=O)[C@H](CCC(=O)O)NC(=O)[C@@H](N)CC(C)C", "method": "HPLC", "measure": "IC50", "value": "0.55 µM"}
{"compound": "C=CCC1(CC=C)C(=O)C(CC=C)(CC=C)[C@@H]2COC[C@H]21", "measure": "IC50", "value": "70–100 µM"}
{"compound": "CC(C)(C)NC(=O)[C@@H]1CSCN1C(=O)[C@@H](O)[C@H](Cc1ccccc1)NC(=O)[C@H](CS(C)(=O)=O)NC(=O)COc1cccc(C(=O)N2CCOCC2)c1", "measure": "IC50", "value": "~0.05 µM"}
{"compound": "CCCCCCCCCCCCCC(=O)N[C@H](Cc1ccccc1)C(=O)O", "method": "HPLC", "measure": "IC50", "value": "32 µM"}
{"compound": "CC(C)[C@H](NC(=O)OCc1ccccn1)C(=O)N[C@@H](Cc1ccccc1)[C@@H](O)CN(Cc1ccccc1)NC(=O)OCc1cccnc1", "method": "fluorescence", "measure": "IC50", "value": "<0.0005 µM"}
{"compound": "COc1ccc(S(=O)(=O)N(CC(C)C)C[C@@H](O)[C@H](Cc2ccccc2)NC(=O)OCO[C@H]2C[C@H]3OC[C@@]4(CNC(=O)O4)[C@H]3C2)cc1", "method": "substrate cleavage / fluorescence", "measure": "Ki", "value": "0.00017 µM"}
{"compound": "CC(C)c1nc(CN(C)C(=O)N[C@H](C(=O)NN(Cc2ccccc2)C[C@H](O)[C@H](Cc2ccccc2)NC(=O)OCc2ccno2)C(C)C)co1", "method": "fluorescence", "measure": "IC50", "value": "<0.0005 µM"}
{"compound": "Cc1cccc(C)c1OCC(=O)N[C@@H](Cc1ccccc1)[C@@H](O)C[C@H](Cc1ccccc1)NC(=O)[C@@H](NS(=O)(=O)c1c(C)noc1C)C(C)C", "method": "substrate cleavage", "measure": "Ki", "value": "0.115 µM"}
{"compound": "CCCCCCCCCCCCCC(=O)N[C@@H](Cc1ccccc1)Oc1ccc([S+](C)C)cc1.COS(=O)(=O)[O-]", "method": "HPLC", "measure": "IC50", "value": "240 µM"}
{"compound": "O=C1C(C/C=C/c2ccccc2)(C/C=C/c2ccccc2)[C@@H]2COC[C@H]2C1(C/C=C/c1ccccc1)C/C=C/c1ccccc1", "measure": "IC50", "value": "70–100 µM"}
{"compound": "C=C(C)[C@H]1CC[C@]2(C)[C@H]3CC[C@@H]4[C@@]5(C)C[C@H](OC(C)=O)C[C@](C)(C(=O)O)[C@@H]5CC[C@@]4(C)[C@]3(C)CC[C@@H]12", "method": "HPLC", "measure": "IC50", "value": "1.7 µM"}
{"compound": "Cc1cccc(C)c1OCC(=O)N[C@@H](Cc1ccccc1)[C@@H](O)C[C@H](Cc1ccccc1)NC(=O)[C@@H](NS(=O)(=O)c1ccc(-c2cc(C(F)(F)F)n(C)n2)s1)C(C)C", "method": "substrate cleavage", "measure": "Ki", "value": "0.038 µM"}
{"compound": "CC(C)CN(C[C@@H](O)[C@H](Cc1ccccc1)NC(=O)C[C@H]1C2CO[C@H]3OCC1C3C2)S(=O)(=O)c1ccc(N)cc1", "strain or isolate": "LAI", "method": "fluorescence", "measure": "Ki", "value": "0.00002 µM"}
{"compound": "CC(C)c1nc(CN(C)C(=O)N[C@H](C(=O)N[C@@H](Cc2ccccc2)[C@@H](O)CN(Cc2ccccc2)NC(=O)OC(C)(C)C)C(C)C)co1", "method": "fluorescence", "measure": "IC50", "value": "<0.0005 µM"}
{"compound": "COc1ccc(S(=O)(=O)N(CC(C)C)C[C@@H](O)[C@H](Cc2ccccc2)NC(=O)OCO[C@H]2C[C@H]3OCC4(CNC(=O)O4)[C@H]3C2)cc1", "method": "substrate cleavage / fluorescence", "measure": "Ki", "value": "0.00029 µM"}
{"compound": "CC(CC(N)=O)NC(=O)[C@@H]1CSCN1C(=O)[C@@H](O)[C@H](Cc1ccccc1)NC(=O)[C@H](CS(C)(=O)=O)NC(=O)COc1cccc2ccccc12", "measure": "IC50", "value": "<0.05 µM"}
{"compound": "COc1ccc(S(=O)(=O)N(C[C@@H](O)[C@H](Cc2ccccc2)NC(=O)O[C@H]2CCOC2)CC(C)(C)O)cc1", "measure": "Ki", "value": "0.004 µM"}

A second listing of 2 rows from above:

compound | strain or isolate | method | measure | value
O=c1c(OC2O[C@@H](O)[C@H](O)[C@H](O)[C@H]2O)c(-c2ccc(O)cc2)oc2cc(OC3O[C@@H](O)[C@H](O)[C@H](O)[C@H]3O)cc(O)c12 |  | HPLC | IC50 | >300 µM
CC(C)c1nc(CN(C)C(=O)N[C@H](C(=O)NN(Cc2ccccc2)C[C@H](O)[C@H](Cc2ccccc2)NC(=O)OCc2ccno2)C(C)C)co1 |  | fluorescence | IC50 | <0.0005 µM

a–b is a range or a potency band. Rows are shuffled and stem from different studies. An empty or dashed field is not shown.